Laboratory results: PubChem BioAssay AID624099 (ICCB-Longwood, 2012)
This is one part, drawn at random, of about 21,000 reagents. Of all reagents, 497 (2.4%) were called active. 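Higher z means weaker E2 silencing; only reporter increases were scored, and knock-downs that hurt cell survival may mask genuine repressor factors.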 A number with no mark means an inactive call. Reagents against one gene are numbered here. No sequences are given here.

Aim: 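Human genes that papillomavirus E2 requires to repress the HPV18 LCR promoter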 (primary screen)
System: human C33A cervical carcinoma cells (HPV-negative) stably expressing BPV1 E2 and an HPV18 LCR luciferase reporter
Reagent: siRNA pool against human genes, 40 nM
Timing: 72 h
Measured: 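HPV18 LCR reporter light per well, converted to plate-wise z-scores that exclude control wells, and averaged over triplicate plates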
Scale: mean z-score and z-score: higher = stronger reporter signal, weaker E2 silencing
Call rule: 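Mean z ≥ 2 together with z ≥ 2 in two or more of the three replicates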

no.	Gene	reagent	mean z-score	z-score, replicate A	z-score, replicate B	z-score, replicate C
1	NUAK1 (NUAK family kinase 1)	1	-0.11	-0.03	-0.21	-0.09
2	NOL3 (nucleolar protein 3)	1	0.78	0.97	0.81	0.56
3	ODAD2 (outer dynein arm docking complex subunit 2)	1	-1.1	-1.11	-1.28	-0.9
4	DYNLT3 (dynein light chain Tctex-type 3)	1	1.03	1.25	0.89	0.94
5	IMMT (inner membrane mitochondrial protein)	1	0.23	0.28	0.26	0.14
6	LOC392512 (retired record)	1	0.6	0.38	0.6	0.82
7	TMEM145 (transmembrane protein 145)	1	-0.95	-1.23	-0.83	-0.8
8	CPAMD8 (C3 and PZP like alpha-2-macroglobulin domain containing 8)	1	1.45	2.21	1.26	0.87
9	TMIE (transmembrane inner ear)	1	-0.03	-0.39	0.08	0.21
10	NOSTRIN (nitric oxide synthase trafficking)	1	0.4	0.19	0.21	0.79
11	EIF3M (eukaryotic translation initiation factor 3 subunit M)	1	-2.44	-2.36	-2.43	-2.53
12	COMMD9 (COMM domain containing 9)	1	-1.48	-1.24	-1.3	-1.9
13	COMMD9 (COMM domain containing 9)	2	0.24	0.21	0.36	0.15
14	NSMCE4A (NSE4A component of SMC5/6 complex)	1	-0.89	-1.11	-0.84	-0.72
15	DEK (DEK proto-oncogene)	1	-1.08	-0.51	-1.48	-1.24
16	FANCE (FA complementation group E)	1	1	1.24	0.95	0.82
17	LCA5L (lebercilin LCA5 like)	1	0.97	1.01	0.74	1.17
18	STRIP1 (striatin interacting protein 1)	1	-0.6	-0.59	-0.86	-0.34
19	CCR4 (C-C motif chemokine receptor 4)	1	-1.21	-1.29	-1.06	-1.28
20	LOC401021	1	0.12	-0.22	0.35	0.23
21	EME1 (essential meiotic structure-specific endonuclease 1)	1	-0.76	-0.98	-0.67	-0.64
22	LOC338829 (retired record)	1	0.37	0.37	0.48	0.28
23	USP32 (ubiquitin specific peptidase 32)	1	-0.21	-0.82	0.05	0.14
24	WDR82 (WD repeat domain 82)	1	-1.94	-2.14	-1.61	-2.07
25	WNT3 (Wnt family member 3)	1	0.68	0.63	0.58	0.84
26	SLC9A3-OT1 (SLC9A3 3' UTR overlapping transcript 1)	1	-0.01	0.06	-0.11	0.01
27	CRELD1 (CRELD disulfide isomerase 1)	1	0.41	0.41	0.27	0.54
28	NDC1 (NDC1 transmembrane nucleoporin)	1	2.01	1.97	1.91	2.15
29	UBE2R2 (ubiquitin conjugating enzyme E2 R2)	1	0.42	0.41	0.04	0.82
30	TMCO6 (transmembrane and coiled-coil domains 6)	1	-0.67	-0.45	-0.85	-0.7
31	CKAP4 (cytoskeleton associated protein 4)	1	-0.76	-0.64	-0.77	-0.86
32	TRMT112 (tRNA methyltransferase activator subunit 11-2)	1	-0.92	-0.45	-1.23	-1.07
33	ZBTB45 (zinc finger and BTB domain containing 45)	1	0.35	0.62	0.01	0.41
34	LOC400968 (retired record)	1	-2.03	-1.77	-1.87	-2.46
35	CCRL2 (C-C motif chemokine receptor like 2)	1	0.3	0.3	0.41	0.2
36	ACAP1 (ArfGAP with coiled-coil, ankyrin repeat and PH domains 1)	1	-1.34	-1.27	-1.54	-1.2

3 of these entries, set out differently.
NOSTRIN (nitric oxide synthase trafficking) → mean z-score = 0.4; z-score, replicate A = 0.19; z-score, replicate B = 0.21; z-score, replicate C = 0.79
EIF3M (eukaryotic translation initiation factor 3 subunit M) → mean z-score = -2.44; z-score, replicate A = -2.36; z-score, replicate B = -2.43; z-score, replicate C = -2.53
COMMD9 (COMM domain containing 9) #1 → mean z-score = -1.48; z-score, replicate A = -1.24; z-score, replicate B = -1.3; z-score, replicate C = -1.9

The results go on:
no.	Gene	reagent	mean z-score	z-score, replicate A	z-score, replicate B	z-score, replicate C
37	FMO9P (flavin containing dimethylaniline monoxygenase 9, pseudogene)	1	-0.37	-0.62	-0.6	0.1
38	PON2 (paraoxonase 2)	1	0.84	0.82	1.04	0.67
39	FASLG (Fas ligand)	1	-0.3	-0.05	-0.56	-0.29
40	DEFA6 (defensin alpha 6)	1	-0.21	0.03	-0.34	-0.31
41	TAOK1 (TAO kinase 1)	1	-0.56	0.03	-0.6	-1.12
42	TUBBP1 (tubulin beta pseudogene 1)	1	-2.21	-2.29	-2.05	-2.28
43	SLC6A5	1	0.85	1.35	0.31	0.88
44	MYO15A (myosin XVA)	1	0.08	0.21	0.09	-0.05
45	LOC400726 (retired record)	1	1.01	1.06	1.15	0.82
46	SFXN5 (sideroflexin 5)	1	0.13	0.45	0.2	-0.27
47	SOX11 (SRY-box transcription factor 11)	1	0.82	0.87	0.62	0.96
48	MRNIP (MRN complex interacting protein)	1	0.67	0.09	0.98	0.94
49	LOC402072 (retired record)	1	-0.11	-0.32	0.21	-0.2
50	GADD45G (growth arrest and DNA damage inducible gamma)	1	2.24 (active)	2.29	1.9	2.53
51	PRDM16-DT (PRDM16 divergent transcript)	1	-1.29	-1.37	-1.22	-1.27
52	RPLP1P5 (ribosomal protein lateral stalk subunit P1 pseudogene 5)	1	0.8	1.09	0.7	0.61
53	SLC10A2	1	-1.89	-1.75	-1.68	-2.25
54	GNPDA2 (glucosamine-6-phosphate deaminase 2)	1	0.87	1.2	0.52	0.88
55	ABCA5 (ATP binding cassette subfamily A member 5)	1	-1.16	-1.29	-1.02	-1.16
56	PTPN20 (protein tyrosine phosphatase non-receptor type 20)	1	1.34	1.39	1.14	1.49
57	S100A3 (S100 calcium binding protein A3)	1	1.34	1.45	1.31	1.25
